# Earlier results as cited in paper PMC7033585.
# By UniProt entry, the sequences of proteins in these tests, tags left out. Where a name states a change or a piece, a line headed by the entry shows the natural chain unless it says otherwise.
# UniProt H9T8G7: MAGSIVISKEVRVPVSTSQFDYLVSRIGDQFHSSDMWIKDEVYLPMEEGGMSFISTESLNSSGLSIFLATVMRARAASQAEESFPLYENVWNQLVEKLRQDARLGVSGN
# Molecular target: CdiIIIBp1026b (Burkholderia pseudomallei) (UniProt H9T8G7)
# Conditions: cited from earlier work
substance,measurement,value
CdiA-CTIIBp1026b CT (from UniProt H9T8G4),Kd,21.1 nM
